Anti-infective test results gathered from many reports (values: NIAID ChemDB through PubChem).

All rows: whole-cell or culture tests; organism: Candida parapsilosis

A number after MIC or MFC names an inhibition level or a share of isolates. Blank or dashed fields: not listed here. ECn: concentration that inhibits the pathogen or its effect by n%. Neighbouring rows are from separate reports.

SMILES,endpoint,strain or isolate,setting,method,value
Nn1c(SCC(O)(Cn2cncn2)c2ccc(Cl)cc2Cl)nnc1-c1ccc(F)cc1,MIC,ATCC 22019,-,broth dilution,>64 µg/mL
COc1cc2oc(=O)ccc2cc1CC(O)C(C)(C)O,MIC,-,-,-,>250 µg/mL
CN(CC(=O)Nc1ccc(F)c(Cl)c1)CC(O)(Cn1cncn1)c1ccc(F)cc1F,MIC80,-,-,-,4 µg/mL
C[C@H]1[C@H](O)[C@@H](C)/C=C/C=C/C=C/C=C/C=C/C=C/C=C/[C@H](O[C@@H]2O[C@H](C)[C@@H](O)[C@H](N)[C@@H]2O)C[C@@H]2O[C@](O)(C[C@@H](O)C[C@@H](O)CC[C@H](O)[C@@H](O)C[C@@H](O)CC(=O)O[C@H]1C)C[C@H](O)[C@H]2C(=O)O,MIC50,-,-,broth dilution,0.5 µg/mL
CC(C(=O)O)N1C(=O)CCSC1c1ccccc1,EC50,-,-,broth dilution,52.89 µM
Cc1ccc(/C=N/Nc2ccnc3cc(Cl)ccc23)cc1,MIC,-,-,-,40 µg/mL
CCCCN(Cc1cn(Cc2ccccc2Br)nn1)CC(O)(Cn1cncn1)c1ccc(F)cc1F,MIC80,-,-,-,8 µg/mL
CCC[CH2][Sn+3].Fc1ccccc1N=C([S-])N/N=C(\c1ccccc1)c1ccccn1,MIC,ATCC 22019,-,broth dilution,107.4 µM
O=C(O[C@@H]1COC(=O)c2cc(O)c(O)c(O)c2-c2c(cc(O)c(O)c2O)C(=O)OC1C1OC(=O)c2cc(O)c(O)c(O)c2-c2c(O)c(O)c(O)c3c2C(=O)OC1[C@H]3O)c1cc(O)c(O)c(O)c1,MIC100,ATCC 22019,-,broth dilution,580 µg/mL
NN(Cc1ccccc1)CC(O)(Cn1cncn1)c1ccc(F)cc1F,MIC80,ATCC 21019,-,-,0.125 µg/mL
Cc1ccc(NC(=O)CN(C)CC(O)(Cn2cncn2)c2ccc(F)cc2F)cc1C,MIC80,-,-,-,4 µg/mL
CC(C(=O)O)N1C(=O)CSC1c1ccccc1,EC50,-,-,broth dilution,78.12 µM
O=C(NCCCCCCNC(=O)NNC(=O)c1ccccc1)NNC(=O)c1ccccc1,MIC,-,-,-,7.5 µg/mL
COc1ccc(N2C(=O)C[C@@H](C)C2=O)cc1,MIC,CCC 124-2000,-,broth dilution / turbidity,62.5 µg/mL
CCC(C)n1ncn(-c2ccc(N3CCN(c4ccc(OC[C@H]5CO[C@](Cn6cncn6)(c6ccc(Cl)cc6Cl)O5)cc4)CC3)cc2)c1=O,MIC,ATCC 22019,-,broth dilution,1 µg/mL
N=c1oc2ccccc2c2csc(N)c12,MIC,ATCC 22019,-,broth dilution,32 µg/mL
Nn1c(SCC(O)(Cn2cncn2)c2ccc(F)cc2F)nnc1-c1cccc(Br)c1,MIC,ATCC 22019,-,broth dilution,>64 µg/mL
OC(Cn1cncn1)(Cn1cncn1)c1ccc(F)cc1F,MIC,ATCC 22019,-,broth dilution,0.2 µg/mL
C=CCc1ccc(O)c(OC)c1,MIC90,2615,-,turbidity,490 µg/mL
C[C@H]1[C@H](O)[C@@H](C)/C=C/C=C/C=C/C=C/C=C/C=C/C=C/[C@H](O[C@@H]2O[C@H](C)[C@@H](O)[C@H](N)[C@@H]2O)C[C@@H]2O[C@](O)(C[C@@H](O)C[C@@H](O)CC[C@H](O)[C@@H](O)C[C@@H](O)CC(=O)O[C@H]1C)C[C@H](O)[C@H]2C(=O)O,MFC,MTCC 1965,-,visual reading,1 µg/mL
COc1ccccc1C1SCC(=O)N1C(C)C(=O)O,EC50,-,-,broth dilution,79.61 µM
CC1CC(=O)N(CCCCc2ccccc2)C1=O,MIC,CCC 124-2000,-,broth dilution / turbidity,125 µg/mL
CN(CC(=O)Nc1ccccc1)CC(O)(Cn1cncn1)c1ccc(F)cc1F,MIC80,-,-,-,16 µg/mL
Cc1n[nH]c(=O)n1CCCCCCn1c(C)n[nH]c1=O,MIC,-,-,-,7.5 µg/mL
C/C(=N\NC([S-])=Nc1ccccc1[N+](=O)[O-])c1ccccn1.CCC[CH2][Sn+3],MIC,ATCC 22019,-,broth dilution,7.13 µM
Nc1nc(=O)n([C@H]2O[C@@H](CO)[C@H](O)[C@@H]2O)cc1F,MIC,ATCC 22019,-,broth dilution,0.75 µg/mL
CC1CC(=O)N(c2ccc(Cl)cc2)C1=O,MIC,CCC 124-2000,-,broth dilution / turbidity,250 µg/mL
O=c1cc(-c2ccc(O)c(O)c2)oc2cc(O)c([C@@H]3O[C@H](CO)[C@@H](O)[C@H](O)[C@H]3O)c(O)c12,MIC,ATCC 22019,-,broth dilution,125 µg/mL
C[C@H]1[C@H](O)[C@@H](C)/C=C/C=C/C=C/C=C/C=C/C=C/C=C/[C@H](O[C@@H]2O[C@H](C)[C@@H](O)[C@H](N)[C@@H]2O)C[C@@H]2O[C@](O)(C[C@@H](O)C[C@@H](O)CC[C@H](O)[C@@H](O)C[C@@H](O)CC(=O)O[C@H]1C)C[C@H](O)[C@H]2C(=O)O,MIC,ATCC 22019,-,-,1.4 µg/mL
S=C(S)n1nnc2ccccc21,EC50,-,48 h,broth dilution / absorbance,>50 µg/mL
CCCCN(Cc1cn(Cc2ccc([N+](=O)[O-])cc2)nn1)CC(O)(Cn1cncn1)c1ccc(F)cc1F,MIC80,-,-,-,4 µg/mL
Cc1ccc(-c2nnc(SCC(O)(Cn3cncn3)c3ccc(Cl)cc3Cl)n2N)cc1,MIC,ATCC 22019,-,broth dilution,>64 µg/mL
CC(C)(O)c1cn(-c2ccc(Cl)cc2)nn1,MIC,URM 4804,-,broth dilution,128 µg/mL
Cn1cccc1CC(=O)NNC(=O)NCCCCCCNC(=O)NNC(=O)Cc1cccn1C,MIC,-,-,-,7.5 µg/mL
O=c1[nH][nH]c2c1C(c1ccccc1)CC(c1ccc3ccccc3c1)=C2,MIC,-,-,-,50 µg/mL
Nn1c(SCC(O)(Cn2cncn2)c2ccc(Cl)cc2Cl)nnc1-c1ccc(Cl)cc1Cl,MIC,ATCC 22019,-,broth dilution,32 µg/mL
C[C@@H]1CC(=O)N(CCc2ccccc2)C1=O,MIC,CCC 124-2000,-,broth dilution / turbidity,31.3 µg/mL
CCOc1ccc2nc3cc(N=C4NC(=O)/C(=C\c5ccc([N+](=O)[O-])cc5)S4)ccc3c(N)c2c1,MFC,-,-,broth dilution,>1000 µg/mL
Nn1c(SCC(O)(Cn2cncn2)c2ccc(Cl)cc2Cl)nnc1-c1cccc(Br)c1,MIC,ATCC 22019,-,broth dilution,>64 µg/mL
CC[C@@H]([C@H](C)O)n1ncn(-c2ccc(N3CCN(c4ccc(OC[C@@H]5CO[C@@](Cn6cncn6)(c6ccc(F)cc6F)C5)cc4)CC3)cc2)c1=O,MIC50,-,-,broth dilution,0.12 µg/mL
O=C(/C=C/c1cc(Cl)ccc1Cl)c1c[nH]c2ccccc12,MIC,NRRL Y-12696,-,broth dilution,25 µg/mL
CCCCN(Cc1cn(Cc2ccc(C)cc2)nn1)CC(O)(Cn1cncn1)c1ccc(F)cc1F,MIC80,-,-,-,<0.125 µg/mL
Cc1ccc(N2N=C(c3c[nH]c4ccccc34)CC2c2cc(Cl)cc(Cl)c2)cc1,MIC,NRRL Y-12696,-,broth dilution,100 µg/mL
CCCCN(Cc1cn(Cc2cccc(C#N)c2)nn1)CC(O)(Cn1cncn1)c1ccc(F)cc1F,MIC80,-,-,-,16 µg/mL
CCC(C)CC(C)CCCCCCCCC(=O)N[C@H]1C[C@@H](O)[C@H](NCCN)NC(=O)[C@@H]2[C@@H](O)CCN2C(=O)[C@H]([C@H](O)CCN)NC(=O)[C@H]([C@H](O)[C@@H](O)c2ccc(O)cc2)NC(=O)[C@@H]2C[C@@H](O)CN2C(=O)[C@H]([C@@H](C)O)NC1=O,MIC50,-,-,broth dilution,1 µg/mL
O=C(O)CN1C(=O)CCSC1c1ccccn1,EC50,-,-,broth dilution,80.51 µM
C[C@@H]1C(=O)N(c2ccccc2)C(=O)[C@@H]1C,MIC,CCC 124-2000,-,broth dilution / turbidity,31.3 µg/mL
O=c1[nH][nH]c2c1C(c1ccc([N+](=O)[O-])cc1)CC(c1ccc3ccccc3c1)=C2,MIC,-,-,-,25 µg/mL
CCCCN(Cc1cn(Cc2ccccc2[N+](=O)[O-])nn1)CC(O)(Cn1cncn1)c1ccc(F)cc1F,MIC80,-,-,-,4 µg/mL
COc1ccc(-c2nnc(SCC(O)(Cn3cncn3)c3ccc(Cl)cc3Cl)n2N)cc1,MIC,ATCC 22019,-,broth dilution,>64 µg/mL
CCC[CH2][Sn+3].O=[N+]([O-])c1ccccc1N=C([S-])N/N=C(\c1ccccc1)c1ccccn1,MIC,ATCC 22019,-,broth dilution,6.42 µM
CCCCCOc1ccc(-c2cc(-c3ccc(C(=O)N[C@H]4C[C@@H](O)[C@@H](O)NC(=O)[C@@H]5[C@@H](O)[C@@H](C)CN5C(=O)[C@H]([C@H](O)CC(N)=O)NC(=O)[C@H]([C@H](O)[C@@H](O)c5ccc(O)c(OS(=O)(=O)O)c5)NC(=O)[C@@H]5C[C@@H](O)CN5C(=O)[C@H]([C@@H](C)O)NC4=O)cc3)no2)cc1,EC50,RC-601,-,broth dilution,0.5 µg/mL
CCCCCCCCCCCCCCCC(=O)NC(CCCCN)C(=O)NC(CCCCN)C(N)=O,MIC,ATCC 4874,-,broth dilution,2 µg/mL
Nn1c(SCC(O)(Cn2cncn2)c2ccc(Cl)cc2Cl)nnc1-c1ccccc1,MIC,ATCC 22019,-,broth dilution,>64 µg/mL
Cc1ccc(N2N=C(c3c[nH]c4ccccc34)CC2c2ccc(Cl)c(Cl)c2)cc1,MIC,NRRL Y-12696,-,broth dilution,100 µg/mL
O=C(O)C(Cc1ccccc1)N1C(=O)CSC1c1ccc(Cl)cc1,EC50,-,-,broth dilution,56.17 µM
Cc1ccc(N2N=C(c3c[nH]c4ccccc34)CC2c2cccc(Cl)c2Cl)cc1,MIC,NRRL Y-12696,-,broth dilution,200 µg/mL
C[C@@H](c1ncncc1F)[C@](O)(Cn1cncn1)c1ccc(F)cc1F,MIC,ATCC 22019,-,broth dilution,0.0312 µg/mL
O=C(O)CN1C(=O)CSC1c1ccc(Cl)cc1,EC50,-,-,broth dilution,77.51 µM
CCCCN(Cc1cn(Cc2ccc(Br)cc2)nn1)CC(O)(Cn1cncn1)c1ccc(F)cc1F,MIC80,-,-,-,8 µg/mL
CC(C(=O)O)N1C(=O)CSC1c1ccccn1,EC50,-,-,broth dilution,20.22 µM
CCCCN(Cc1cn(Cc2ccc(Cl)cc2Cl)nn1)CC(O)(Cn1cncn1)c1ccc(F)cc1F,MIC80,-,-,-,8 µg/mL
CN(CC(=O)Nc1ccccc1[N+](=O)[O-])CC(O)(Cn1cncn1)c1ccc(F)cc1F,MIC80,-,-,-,16 µg/mL
CCCCN(Cc1cn(Cc2cccc([N+](=O)[O-])c2)nn1)CC(O)(Cn1cncn1)c1ccc(F)cc1F,MIC80,-,-,-,8 µg/mL
CCCCCCCC/C=C\CCCCCCCC(=O)NCCCN,MIC,ATCC 22019,-,broth dilution,128 µg/mL
Nn1c(SCC(O)(Cn2cncn2)c2ccc(F)cc2F)nnc1-c1ccncc1,MIC,ATCC 22019,-,broth dilution,>64 µg/mL

4 of the rows above, restated:

SMILES	endpoint	strain or isolate	setting	method	value
C[C@H]1[C@H](O)[C@@H](C)/C=C/C=C/C=C/C=C/C=C/C=C/C=C/[C@H](O[C@@H]2O[C@H](C)[C@@H](O)[C@H](N)[C@@H]2O)C[C@@H]2O[C@](O)(C[C@@H](O)C[C@@H](O)CC[C@H](O)[C@@H](O)C[C@@H](O)CC(=O)O[C@H]1C)C[C@H](O)[C@H]2C(=O)O	MIC50	-	-	broth dilution	0.5 µg/mL
C=CCc1ccc(O)c(OC)c1	MIC90	2615	-	turbidity	490 µg/mL
O=C(/C=C/c1cc(Cl)ccc1Cl)c1c[nH]c2ccccc12	MIC	NRRL Y-12696	-	broth dilution	25 µg/mL
C[C@@H]1CC(=O)N(CCc2ccccc2)C1=O	MIC	CCC 124-2000	-	broth dilution / turbidity	31.3 µg/mL